For the data set, the system named is O=C(O)c1ccccc1NCC(=O)[C@H](O)[C@H](O)COP(=O)(O)O. The data set is described as follows: purified protein. The note with it: pH 7.5; 25.0 °C.

Data on 1 substance can be found in paper PMC10591298.

Turning to (Mycobacterium tuberculosis H37Rv), the Km – broadly, the concentration of substrate that gives half-maximal velocity – worked out at 6.9 ± 1.4 µM.
